Laboratory results published in the supplement of paper PMC9931576.
Human monoclonal antibodies against the spike receptor-binding domain (heavy:light variable regions). IC50 against pseudoviruses bearing the spike of naturally observed variants; lower = stronger; >10 µg/ml means not reached at the top dose. No active / inactive call. The stated detection limit is 0.0005 µg/ml; values near or below 0.001 µg/ml lie at the floor of the assay.

How the values were obtained:
Test in all cases: pseudovirus neutralization IC50; higher = weaker neutralization
[1] = target: SARS-CoV-2 Omicron BA.1 spike pseudovirus
Method: (§1)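 Single-round VSV luciferase pseudovirus mixed with antibody dilutions for 1 h and put on Huh-7 cells for about a day; IC50 from the dose curve.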

[2] = target: SARS-CoV-2 Omicron BA.2 spike pseudovirus
Method: as §1

[3] = target: SARS-CoV-2 Omicron BA.2.75 spike pseudovirus
Method: as §1

[4] = target: SARS-CoV-2 Omicron BA.5 spike pseudovirus
Method: as §1

[5] = target: SARS-CoV-2 Omicron BQ.1.1 spike pseudovirus
Method: as §1

[6] = target: SARS-CoV-2 Omicron XBB spike pseudovirus
Method: as §1

[7] = target: SARS-CoV-2 early D614G spike pseudovirus
Method: as §1

B1: BD57-0374 (protein)
chain 1: EVQLVESGGGLVQPGRSLRLSCTASGFNFEDYTMHWVRQAPGKGLEWVSGISWNGGTIGYAESVKGRCIISRDNAKNSLYLHLRSLRAEDTAFYYCAKDTMVREGYNNYYGMDVWGQGTTVTVSS
chain 2: QSVLTQPPSVSGAPGQRVTISCTGSSSNIGAGYDVHWYQQLPGPAPKLLIYGTNNRPSGVPDRFSGSKSGTSASLAITGLQAEDEADYYCQSFDSSLGGYVFGTGTKVTVL
[1]
  pseudovirus neutralization IC50: 0.102 µg/mL
[2]
  pseudovirus neutralization IC50: 0.0746 µg/mL
[3]
  pseudovirus neutralization IC50: 0.054 µg/mL
[4]
  pseudovirus neutralization IC50: 0.069 µg/mL
[5]
  pseudovirus neutralization IC50: > 10 µg/mL
[6]
  pseudovirus neutralization IC50: 3.21 µg/mL
[7]
  pseudovirus neutralization IC50: 0.0236 µg/mL

B2: BD57-0378 (protein)
chain 1: QVQLVQSGAEVKKPGSSVKVSCKASGGTFTRYAISWVRQAPGQGLEWMGGIIPIFGIANYAQKFQGRVTITADESTSTAYMDLSSLRSEDTAVYYCARDLFYYDRSGQPQVDEYFQDWGQGTLVTVSS
chain 2: QSVLTQPPSVSGAPGQRVTISCTGSSSNIGAGYDVHWYQQLPGTAPKLLIYGNSNRPSGVPDRFSGSTSGTSASLAITGLQAEDEADYYCQSYDSSLSGYVFGIGTKVTVL
[1]
  pseudovirus neutralization IC50: 0.125 µg/mL
[2]
  pseudovirus neutralization IC50: > 10 µg/mL
[3]
  pseudovirus neutralization IC50: > 10 µg/mL
[4]
  pseudovirus neutralization IC50: > 10 µg/mL
[5]
  pseudovirus neutralization IC50: > 10 µg/mL
[6]
  pseudovirus neutralization IC50: > 10 µg/mL
[7]
  pseudovirus neutralization IC50: 0.119 µg/mL

B3: BD57-0390 (protein)
chain 1: QVQLVESGGGVVQPGRSLRLSCAASGFTFSNYDMHWVRQAPGKGLEWLAVISKDGSTKYNADSVKGRFTISRDNYQNMVYLQMNSLRAEDTGVFYCARDLDPYSYGYFDYWGQGTLVTVSS
chain 2: EIVMTQSPATLSVSPGERATLSCRASQIVSSNLAWYQQNPGQAPRLLIYGASTRATGIPARFSGSGSGTEFTLTISSLQPEDFAVYYCQQYYYWPSFGPGTKVDIK
[1]
  pseudovirus neutralization IC50: > 10 µg/mL
[2]
  pseudovirus neutralization IC50: > 10 µg/mL
[3]
  pseudovirus neutralization IC50: > 10 µg/mL
[4]
  pseudovirus neutralization IC50: > 10 µg/mL
[5]
  pseudovirus neutralization IC50: > 10 µg/mL
[6]
  pseudovirus neutralization IC50: > 10 µg/mL
[7]
  pseudovirus neutralization IC50: > 10 µg/mL

B4: BD57-0397 (protein)
chain 1: EVQLLESGGGLVQPGGSLRLSCAGSGFTFRHYAMTWVRQPPGKGLEWVSSISGSGGDTFYPDSVKGRFTISRDNSKNILYLQMNNLRADDTAVYYCAKDRVASMWANEYWGQGTLVIVSS
chain 2: DIQMTQSPSSLSASVGDRVTITCQASQDISNYLNWYQQRPGKAPKLLIYDASNLETGVPSRFSGSGSGTDFTLTISSLQPEDIATYYCQQYDHLVFTFGPGTKVHLK
[1]
  pseudovirus neutralization IC50: > 10 µg/mL
[2]
  pseudovirus neutralization IC50: > 10 µg/mL
[3]
  pseudovirus neutralization IC50: > 10 µg/mL
[4]
  pseudovirus neutralization IC50: > 10 µg/mL
[5]
  pseudovirus neutralization IC50: > 10 µg/mL
[6]
  pseudovirus neutralization IC50: > 10 µg/mL
[7]
  pseudovirus neutralization IC50: > 10 µg/mL

B5: BD57-0402 (protein)
chain 1: QVQLVQSGPEVRKPGASVKVSCKPSGYIFTNYYLHWVRQAPGQGLEWMGIINPRGGSPDYAQKFQGRVSMTRDMSTSTVYMELRSLTSDDTAVYYCSRGNRVTVSGVDFWGQGTLVTVSS
chain 2: QTVVTQEPSLTVSPGGTVTLTCASSAGPVTDEFFPNWFQQKPGHAPTTLIYSTTNKHSWTPARFSGSLLGGKAALTLSRVQPEDEADYFCLLYFGGAWVFGGGTKVTVL
[1]
  pseudovirus neutralization IC50: 0.37 µg/mL
[2]
  pseudovirus neutralization IC50: 0.348 µg/mL
[3]
  pseudovirus neutralization IC50: 0.0745 µg/mL
[4]
  pseudovirus neutralization IC50: 3.12 µg/mL
[5]
  pseudovirus neutralization IC50: > 10 µg/mL
[6]
  pseudovirus neutralization IC50: > 10 µg/mL
[7]
  pseudovirus neutralization IC50: 0.00413 µg/mL

B6: BD57-0403 (protein)
chain 1: EVQLVESGGGLVQPGGSLRLSCAASGFTFSNYDMHWVRQVPGKGLDWVSVIGTAGDTYYPDSVKGRFAISRENAKNSLFLQMNNLRAEDTAVYYCARAYYDTSGLYLAFDNWGQGTLVTVSS
chain 2: DIQMTQSPSSLSASIGDRVTITCRASQSVGSYLNWYQQKPGKAPKLLIYAASSLLSGVSSRFSGSGSGTDFTLTISSLQPEDFATYYCQQSYSTLALTFGGGTKVEIK
[1]
  pseudovirus neutralization IC50: > 10 µg/mL
[2]
  pseudovirus neutralization IC50: > 10 µg/mL
[3]
  pseudovirus neutralization IC50: > 10 µg/mL
[4]
  pseudovirus neutralization IC50: > 10 µg/mL
[5]
  pseudovirus neutralization IC50: > 10 µg/mL
[6]
  pseudovirus neutralization IC50: > 10 µg/mL
[7]
  pseudovirus neutralization IC50: > 10 µg/mL
